Source: ChEMBL document CHEMBL5725298 (2017)

What was measured:
Gag-Pol polyprotein [1] = target: T1, Gag-Pol polyprotein (Human immunodeficiency virus type 1 group M subtype B (isolate HXB2)(HIV-1), UniProt P04585); assay: (§1) PHENOSENSE assay: The PhenoSense report form includes drug resistance information for all of the approved nucleoside reverse transcriptase inhibitors (NRTIs), nonnucleoside reverse transcriptase inhibitors (NNRTIs), and protease inhibitors (PIs).
Gag-Pol polyprotein [2] = target: T1, Gag-Pol polyprotein; assay: as §1; remark: listed apart in the source
Gag-Pol polyprotein [3] = target: T1, Gag-Pol polyprotein; assay: as §1; remark: listed apart in the source
Gag-Pol polyprotein [4] = target: T1, Gag-Pol polyprotein; assay: as §1; remark: listed apart in the source
Gag-Pol polyprotein [5] = target: T1, Gag-Pol polyprotein; assay: as §1; remark: listed apart in the source
Gag-Pol polyprotein [6] = target: T1, Gag-Pol polyprotein; assay: as §1; remark: listed apart in the source

Structure (SMILES) | IC50 (Gag-Pol polyprotein [1]) | IC50 (Gag-Pol polyprotein [2]) | IC50 (Gag-Pol polyprotein [3]) | IC50 (Gag-Pol polyprotein [4]) | IC50 (Gag-Pol polyprotein [5]) | IC50 (Gag-Pol polyprotein [6])
CC(C)OC(=O)OCOP(=O)(CO[C@H](C)Cn1cnc2c(N)ncnc21)OCOC(=O)OC(C)C | 6.52 µM | 5.39 µM | > 8.51 µM | > 6.49 µM | > 6.47 µM | 1.04 µM
CCCCCCCCCCCCCCCCOCCCOP(=O)(O)CO[C@H](C)Cn1cnc2c(N)ncnc21 [TENOFOVIR EXALIDEX] |  |  |  | 0.005 µM | 0.009 µM | 
